A mixed list of measured activities; the numbers were collected in NIAID ChemDB.

All rows: whole-cell or culture tests; organism: Herpes simplex virus 1; method: plaque count; endpoint: EC50

ECn: concentration that inhibits the pathogen or its effect by n%.

structure,strain,cells,value
C=Cc1cn(OC(CO)CO)c(=O)[nH]c1=O,KOS (TK+),VERO,>25 µg/mL
C#Cc1cnc(OC(=O)c2ccccc2)nc1OC(=O)c1ccccc1,-,VERO,>100 µM
S=C(S)OC1CCCCC1,-,-,42.8 µM
COC(=O)[C@H](C)NP(=O)(OCC1C/C1=C/n1cnc2c(NC3CC3)nc(N)nc21)Oc1ccccc1,-,HFF,0.8 µM
C#Cc1cnc(C(C)=O)nc1C(C)=O,-,VERO,>100 µM
Nc1nc(=O)n([C@@H]2O[C@H](CO)[C@@H](O)[C@@H]2F)cc1Cl,2931,VERO,<10 µg/mL
CC(=O)OCC(COC(C)=O)OCn1cnc2c(=O)[nH]c(N)nc21,-,HFF,2.8 µg/mL
O=c1[nH]c(=O)n([C@@H]2O[C@H](CO)[C@@H](O)[C@@H]2O)cc1I,2931,VERO,<10 µg/mL
S=C(S)OC1CCCCCCCCCCC1,-,-,7.5 µM
O=C(NCc1ccc(Cl)cc1)c1c[nH]c2ccc(C#CCO)cc2c1=O,DJL,-,11 µM
CCCCCCCCCCCCCCCCOCCCOP(=O)(O)OCC(CO)CCn1cnc2c(=O)[nH]c(N)nc21,-,MRC-5,>145 µM
NC1=NC2C(C=CN2CC(CO)CCO)C(=O)N1,-,-,0.01–0.1 µM
Nc1nc2c(ncn2CC(CO)CCO)c(=O)[nH]1,SC16,VERO,1.4 µM
CSc1nsc(-c2ccc(OCCCCOc3ccccc3)cc2)c1C#N,F,HEP-2/L-929/VERO,>20 µM
Nc1nc2c(ncn2[C@@H]2CO[C@H](CO)[C@@H](O)C2)c(=O)[nH]1,-,-,0.1–1 µM
Cc1cn([C@@H]2O[C@H](CO)[C@@H](O)[C@@H]2F)c(=O)[nH]c1=O,F-FIAC-C3,VERO,10 µM
O=C(O)CP(=O)(O)O,VR/TK-,HEL,118 µM
COCCOCSC(=S)OC1CCCCC1,-,-,23.4 µM
Nc1nc(=O)n([C@@H]2O[C@H](CO)[C@@H](O)[C@@H]2F)cc1Br,2931,VERO,<0.1 µg/mL
O=c1[nH]c(=O)n([C@@H]2O[C@H](CO)[C@@H](O)[C@@H]2F)cc1I,F-FAU-C2,VERO,7.8 µM
COC(=O)[C@]1(C)CCC[C@]2(C)c3ccc4nc5c(nc4c3CCC12)CCCC5,-,E6SM,>4 µg/mL
O=c1[nH]c(=O)n([C@@H]2O[C@H](CO)[C@@H](O)[C@@H]2F)cc1F,2931,VERO,<0.1 µg/mL
Nc1nc2c(ncn2C/C=C\CO)c(=O)[nH]1,C42,Primary mouse cells,0.2 µM
Nc1nc(=S)c2ncn(COC(CO)CO)c2[nH]1,F,VERO,>100 µM
Nc1nc2c(ncn2COC(CO)CO)c(=O)[nH]1,-,-,0.001–0.01 µM
COC(=O)[C@H](C)NP(=O)(OC[C@H]1C/C1=C/n1cnc2c(=O)[nH]c(N)nc21)Oc1ccccc1,-,HFF,22.1 µM
Nc1ncnc2c1c(I)cn2COC(CO)CO,-,HFF,>100 µM
CSc1nsc(-c2ccc(OCCCc3ccccc3)cc2)c1C#N,F,HEP-2/L-929/VERO,>20 µM
S=C(S)OC1CC2CC1C1CCCC21,-,-,19.3 µM
[N-]=[N+]=NC(CBr)c1cn(CCC(CO)CO)c(=O)[nH]c1=O,KOSSB (TK-),VERO,>135 µM
O=c1[nH]c(=O)n([C@@H]2O[C@H](CO)[C@@H](O)[C@@H]2F)cc1Cl,2931,VERO,<10 µg/mL
CSc1nsc(-c2ccc(OCCCCOc3ccc(C#N)cc3)cc2)c1C#N,F,HEP-2/L-929/VERO,>2 µM
C#Cc1cnc(OC)nc1OC,-,VERO,>100 µM
CSc1nsc(-c2ccc(OCCOc3ccc(C#N)cc3)cc2)c1C#N,F,HEP-2/L-929/VERO,>2 µM
COC(=O)[C@]1(C)CCC[C@]2(C)c3cc4cc[nH]c4cc3CCC12,-,E6SM,>4 µg/mL
Nc1nc2c(ncn2COCCO)c(=O)[nH]1,-,HFF,0.14 µg/mL
C#Cc1c[nH]c(=O)[nH]c1=O,-,VERO,>100 µM
CSc1nsc(-c2ccc(OCCCOc3ccc([N+](=O)[O-])cc3)cc2)c1C#N,F,HEP-2/L-929/VERO,>0.5 µM
Nc1nc2c(ncn2COC(CO)CO)c(=O)[nH]1,-,MRC-5,0.2 µM
CSc1nsc(-c2ccc(OCc3ccccc3)cc2)c1C#N,F,HEP-2/L-929/VERO,>50 µM
CCCC(=O)OCC(COC(=O)CCC)OCn1cnc2c(=O)[nH]c(N)nc21,-,HFF,2.4 µg/mL
CSc1nsc(-c2ccc(OCCc3ccccc3)cc2)c1C#N,F,HEP-2/L-929/VERO,>20 µM
COCc1cn([C@H]2C[C@H](O)[C@@H](CO)O2)c(=O)[nH]c1=O,PFA-resistant,RK-13,9 µM
O=c1ccn([C@@H]2O[C@H](CO)[C@@H](O)[C@@H]2F)c(=O)[nH]1,2931,VERO,<10 µg/mL
COC(=O)[C@]1(C)CCC[C@]2(C)c3ccc4nc(-c5ccccc5)c(-c5ccccc5)nc4c3CCC12,-,E6SM,>4 µg/mL
CC(=O)N[C@@H](CC(C)C)C(=O)N[C@@H](CC(C)C)C(=O)N[C@H](C=O)CCCN=C(N)N,Fukuda,CV-1,20–40 µM
O=C1C2=C(SCCS2)C(=O)N1CCCCN1CCN(c2ccccc2)CC1,-,VERO 76,>100 µM
Nc1ncnc2c1c(Cl)cn2COC(CO)CO,-,HFF,2 µM
Cc1cc([C@@H](O)[C@@H](O)CO)co1,MFPT-resistant-1,VERO,170 µM
Nc1nc(=O)n([C@@H]2O[C@H](CO)[C@@H](O)[C@@H]2F)cc1I,F-ACV-C4,VERO,22 µM
CC(C)C[C@H](NC(=O)[C@@H]1O[C@H]1C(=O)O)C(=O)NCCCCN=C(N)N,Fukuda,CV-1,>40 µM
Nc1ccn([C@@H]2O[C@H](CO)[C@@H](O)[C@@H]2O)c(=O)n1,2931,VERO,<1 µg/mL
Nc1nc2c(ncn2CCC(CO)CO)c(=O)[nH]1,KT2,VERO,177.7 µM
O=c1[nH]c(=O)n([C@H]2C[C@H](O)[C@@H](CO)O2)cc1/C=C/Br,VR-3,CCRF-HSV-B,0.048 µg/mL
CN1CCN(n2cc(C(=O)NCc3ccc(Cl)cc3)c(=O)c3cc(CN4CCOCC4)ccc32)CC1,KOS,HFF,0.6 µM
COC(=O)[C@H](C)NP(=O)(OC[C@H]1C/C1=C/n1cnc2c(OC)nc(N)nc21)Oc1ccccc1,-,HFF,1.1 µM
Nc1nc2c(ncn2CCC(CO)CO)c(=O)[nH]1,20 clinical isolates,HEL,0.6 µg/mL
O=c1[nH]c(=O)n([C@@H]2O[C@H](CO)[C@@H](O)[C@@H]2F)cc1I,2931,VERO,<0.1 µg/mL
CSc1nsc(-c2ccc(OCCCOc3ccc(C#N)cc3)cc2)c1C#N,F,HEP-2/L-929/VERO,>2 µM
Nc1nc2c(ncn2COC2COP(=O)(O)OC2)c(=O)[nH]1,ACG-R,MRC-5,3–6 µM

7 of the rows above, restated:

| structure | strain | cells | value |
|---|---|---|---|
| Cc1cc([C@@H](O)[C@@H](O)CO)co1 | MFPT-resistant-1 | VERO | 170 µM |
| COC(=O)[C@H](C)NP(=O)(OC[C@H]1C/C1=C/n1cnc2c(OC)nc(N)nc21)Oc1ccccc1 | - | HFF | 1.1 µM |
| CSc1nsc(-c2ccc(OCCCCOc3ccc(C#N)cc3)cc2)c1C#N | F | HEP-2/L-929/VERO | >2 µM |
| S=C(S)OC1CCCCCCCCCCC1 | - | - | 7.5 µM |
| CN1CCN(n2cc(C(=O)NCc3ccc(Cl)cc3)c(=O)c3cc(CN4CCOCC4)ccc32)CC1 | KOS | HFF | 0.6 µM |
| Nc1nc2c(ncn2[C@@H]2CO[C@H](CO)[C@@H](O)C2)c(=O)[nH]1 | - | - | 0.1–1 µM |
| O=c1[nH]c(=O)n([C@@H]2O[C@H](CO)[C@@H](O)[C@@H]2O)cc1I | 2931 | VERO | <10 µg/mL |

Rows are shuffled and stem from different studies. Blank or dashed fields: not listed here. a–b is a range or a potency band.